A mixed list of measured activities; the numbers were collected in NIAID ChemDB.

Shared fields: tests on isolated targets

ICn is the concentration giving n% inhibition. An empty or dashed field is not shown. Neighbouring rows are from separate reports. Inhibition is in % at the dose shown (toxicity tests: loss of growth or viability). a–b is a range or a potency band. Fold resistance: result on the changed form divided by that on wild type.

compound	mutations	read-out	tested at	agent	read by	strain or isolate	target	result
CC(C)(CCCNS(C)(=O)=O)CN(C[C@@H](O)[C@H](Cc1ccccc1)NC(=O)O[C@H]1CO[C@H]2OCC[C@H]21)S(=O)(=O)c1ccc(N)cc1		Ki		HIV-1	fluorescence		Protease	<0.001 µM
FC(F)(F)c1cccc2c1CCN(c1nn3c(C4CC4)nnc3c3ccccc13)C2		IC90		HIV-1	RT activity / fluorescence	IIIB	Reverse transcriptase	49.6 µM
Nc1ncnc2c1ncn2[C@H]1CC[C@@H](COP(=O)(O)OP(=O)(O)OP(=O)(O)O)O1	RT-T215Y	fold resistance		HIV			Reverse transcriptase	1.3
COCCNC(=O)c1cn2ccn(Cc3cccc(Cl)c3)c(=O)c2c(O)c1=O		IC50		HIV-1	ELISA		Integrase	0.01–0.1 µM
CC(C)(C)CC(=O)NCCCCC(C)(C)CN(C[C@@H](O)[C@H](Cc1ccccc1)NC(=O)O[C@H]1CO[C@H]2OCC[C@H]21)S(=O)(=O)c1ccc2c(c1)OCO2		Ki		HIV-1	fluorescence		Protease	<0.001 µM
C[S+](C)C[C@H](NC(=O)COc1cccc2ccccc12)C(=O)N[C@@H](Cc1ccccc1)[C@H](O)C(=O)N1CSC(C)(C)[C@H]1C(=O)NC(C)(C)C		IC50		HIV-1			Protease	<0.05 µM
CC(C)(CCCNC(=O)CO)CN(C[C@@H](O)[C@H](Cc1ccccc1)NC(=O)O[C@H]1CO[C@H]2OCC[C@H]21)S(=O)(=O)c1ccc2c(c1)OCO2		Ki		HIV-1	fluorescence		Protease	<0.001 µM
Cc1cnc(-c2cn3ccn(Cc4cccc(Cl)c4)c(=O)c3c(O)c2=O)s1		IC50		HIV-1	ELISA		Integrase	<0.01 µM
CC(C)(CCNC(=O)C1CCCC1)CN(C[C@@H](O)[C@H](Cc1ccccc1)NC(=O)O[C@H]1CO[C@H]2OCC[C@H]21)S(=O)(=O)c1ccc2c(c1)OCO2		Ki		HIV-1	fluorescence		Protease	<0.001 µM
CC(C)(C)NC(=O)[C@H]1N(C(=O)[C@@H](O)[C@H](Cc2ccccc2)NC(=O)[C@H](CS(C)(=O)=O)NC(=O)COc2cccc3ccccc23)CCC1(C)C		inhibition	0.05 µM	HIV-1			Protease	95.7%
CC(C)(CO)C(=O)c1cn2ccn(Cc3cccc(Cl)c3)c(=O)c2c(O)c1=O		IC50		HIV-1	ELISA		Integrase	<0.01 µM
COC(=O)NCC(=O)NCCC(C)(C)CN(C[C@@H](O)[C@H](Cc1ccccc1)NC(=O)O[C@H]1CO[C@H]2OCC[C@H]21)S(=O)(=O)c1ccc2c(c1)OCO2		Ki		HIV-1	fluorescence		Protease	<0.001 µM
COC(=O)c1ccc2c(c1)CN(c1nn3c(C)nnc3c3ccccc13)CC2		IC90		HIV-1	RT activity / fluorescence	KER2008	Reverse transcriptase	8.36 µM
CN(C)C(=O)NCCC(C)(C)CN(C[C@@H](O)[C@H](Cc1ccccc1)NC(=O)O[C@H]1CO[C@H]2OCC[C@H]21)S(=O)(=O)c1ccc(N)cc1		Ki		HIV-1	fluorescence		Protease	<0.001 µM
CSC[C@H](NC(=O)COc1cccc2ccccc12)C(=O)N[C@@H](Cc1ccccc1)[C@H](O)C(=O)N1CCC[C@H]1C(=O)NC(C)(C)C		inhibition	0.05 µM	HIV-1			Protease	93.1%
FC(F)(F)c1ccc2c(c1)CN(c1nn3c(C4CC4)nnc3c3ccccc13)CC2		IC90		HIV-1	RT activity / fluorescence	98US_MSC5016	Reverse transcriptase	7.95 µM
CCOC(=O)NCC(=O)NCCCCC(C)(C)CN(C[C@@H](O)[C@H](Cc1ccccc1)NC(=O)O[C@H]1CO[C@H]2OCC[C@H]21)S(=O)(=O)c1ccc2c(c1)OCO2		Ki		HIV-1	fluorescence		Protease	<0.001 µM
Nc1ccn([C@@H]2CS[C@H](COP(=O)(O)OP(=O)(O)OP(=O)(O)O)O2)c(=O)n1	RT-K65R Q151M	Ki		HIV	radiometric		Reverse transcriptase	0.418 µM
CC(C)(C)NC(=O)[C@H]1N(C(=O)[C@@H](O)[C@H](Cc2ccccc2)NC(=O)[C@H](CC(N)=O)NC(=O)COc2cccc3ccccc23)CSC1(C)C		inhibition	0.05 µM	HIV-1			Protease	98.9%
c1ccc2c(c1)CCN(c1nn3c(-c4ccsc4)nnc3c3ccccc13)C2		IC50		HIV-1	RT activity / fluorescence	IIIB	Reverse transcriptase	19.9 µM
CC(C)=CCN1Cc2cccc3[nH]c(=S)n(c23)C[C@@H]1C	RT-K263V	fold resistance		HIV	nucleotide incorporation		Reverse transcriptase	0.926
CC(C)(C)OC(=O)[C@@H]1CCCN1C(=O)[C@@H](O)[C@H](Cc1ccccc1)NC(=O)[C@H](CC(N)=O)NC(=O)OCc1ccccc1		inhibition	5 µM	HIV-1			Protease	87.4%
COC(=O)NCCC(C)(C)CN(C[C@@H](O)[C@H](Cc1ccccc1)NC(=O)O[C@H]1CO[C@H]2OCC[C@H]21)S(=O)(=O)c1ccc(N)cc1		Ki		HIV-1	fluorescence		Protease	<0.001 µM
COC(=O)CNC(=O)c1cn2ccn(Cc3cccc(Cl)c3)c(=O)c2c(O)c1=O		IC50		HIV-1	ELISA		Integrase	0.01–0.1 µM
CC(C)(C)NC(=O)[C@@H]1CCCN1C(=O)[C@@H](O)[C@H](Cc1ccccc1)NC(=O)[C@H](CC(N)=O)NC(=O)OCc1cccc2ccccc12		inhibition	5 µM	HIV-1			Protease	98.6%
CC(C)NC(=S)NCCC(C)(C)CN(C[C@@H](O)[C@H](Cc1ccccc1)NC(=O)O[C@H]1CO[C@H]2OCC[C@H]21)S(=O)(=O)c1ccc2c(c1)OCO2		Ki		HIV-1	fluorescence		Protease	<0.001 µM
COc1cc2c(cc1N)CN(c1nn3c(C4CC4)nnc3c3ccccc13)CC2		IC50		HIV-1	RT activity / fluorescence	98US_MSC5016	Reverse transcriptase	4.33 µM
Cc1cn([C@H]2CC[C@@H](COP(=O)(O)OP(=O)(O)OP(=O)(O)O)O2)c(=O)[nH]c1=O	RT-L74V	Ki		HIV			Reverse transcriptase	0.085 µM
CC(C)c1nnc2c3ccccc3c(N3CCc4ccc(NS(C)(=O)=O)cc4C3)nn12		IC50		HIV-1	RT activity / fluorescence	KER2008	Reverse transcriptase	0.87 µM
CC(C)(CCCNC(=O)N1CCOCC1)CN(C[C@@H](O)[C@H](Cc1ccccc1)NC(=O)O[C@H]1CO[C@H]2OCC[C@H]21)S(=O)(=O)c1ccc2c(c1)OCO2		Ki		HIV-1	fluorescence		Protease	<0.001 µM
CCCC[C@H](NC(=O)[C@H](C)NC(=O)[C@H](CCC(=O)O)NC[C@H](Cc1ccccc1)NC(=O)[C@H](CC(C)C)NC(=O)[C@@H](NC(=O)[C@@H](N)CCCN=C(N)N)C(C)C)C(N)=O	PR-V82S	IC50		HIV	HPLC		Protease	>0.075 µM
COc1ccc2c(c1)CCN(c1nn3c(C)nnc3c3ccccc13)C2		IC90		HIV-1	RT activity / fluorescence	IIIB	Reverse transcriptase	7.65 µM
COC(=O)NCCCCC(C)(C)CN(C[C@@H](O)[C@H](Cc1ccccc1)NC(=O)O[C@H]1CCOC1)S(=O)(=O)c1ccc(N)cc1		Ki		HIV-1	fluorescence		Protease	<0.001 µM

Again, the opening 4 rows:

| compound | mutations | read-out | tested at | agent | read by | strain or isolate | target | result |
|---|---|---|---|---|---|---|---|---|
| CC(C)(CCCNS(C)(=O)=O)CN(C[C@@H](O)[C@H](Cc1ccccc1)NC(=O)O[C@H]1CO[C@H]2OCC[C@H]21)S(=O)(=O)c1ccc(N)cc1 |  | Ki |  | HIV-1 | fluorescence |  | Protease | <0.001 µM |
| FC(F)(F)c1cccc2c1CCN(c1nn3c(C4CC4)nnc3c3ccccc13)C2 |  | IC90 |  | HIV-1 | RT activity / fluorescence | IIIB | Reverse transcriptase | 49.6 µM |
| Nc1ncnc2c1ncn2[C@H]1CC[C@@H](COP(=O)(O)OP(=O)(O)OP(=O)(O)O)O1 | RT-T215Y | fold resistance |  | HIV |  |  | Reverse transcriptase | 1.3 |
| COCCNC(=O)c1cn2ccn(Cc3cccc(Cl)c3)c(=O)c2c(O)c1=O |  | IC50 |  | HIV-1 | ELISA |  | Integrase | 0.01–0.1 µM |